Results of unrelated studies side by side (data: NIAID ChemDB).

Common to all: growth or infection tests; agent: Candida albicans; measure: MIC80

A number after MIC or MFC names an inhibition level or a share of isolates. Blank or dashed fields: not listed here. a–b is a range or a potency band. Lines come from different laboratories, so protocols vary.

SMILES | strain | method | result
OC(CN1CCCN(CCCCOc2ccccc2)C1)(Cn1cncn1)c1ccc(F)cc1F |  |  | 2.12 µM
NN(Cc1ccccc1)CC(O)(Cn1cncn1)c1ccc(F)cc1F | ATCC 36082 |  | 1 µg/mL
O=C(/C=C/c1cccc(Br)c1)OC1CCN(CC(O)(Cn2cncn2)c2ccc(F)cc2F)CC1 | Y0109 | broth dilution | 0.114 µM
O=C1S/C(=C\c2ccoc2)C(=O)N1CC(O)(Cn1nccn1)c1ccc(F)cc1F | CaCYP51 |  | 0.15 µg/mL
COc1cc(O)c2c(=O)c3cccc(O)c3oc2c1 | ATCC 663.90 |  | >250 µg/mL
Clc1ccc(COC(Cn2ccnc2)c2ccc(Cl)cc2Cl)c(Cl)c1 |  | agar diffusion | 0.0188 µg/mL
O=C(/C=C/c1ccccc1)OC1CCN(CC(O)(Cn2cncn2)c2ccc(F)cc2F)CC1 | Y0109 | broth dilution | 0.033 µM
C[C@@H]1[C@H](O)[C@@H](C)/C=C/C=C/C=C/C=C/C=C/C=C/C=C/[C@H](O[C@@H]2O[C@H](C)[C@@H](O)[C@H](N)[C@@H]2O)C[C@@H]2O[C@](O)(C[C@@H](O)C[C@@H](O)[C@H](O)CC[C@@H](O)C[C@@H](O)CC(=O)O[C@H]1C)C[C@H](O)[C@H]2C(=O)O | ATCC 66396 | turbidity / absorbance | 0.062 µg/mL
CCCCN(Cc1cn(Cc2ccccc2C#N)nn1)CC(O)(Cn1cncn1)c1ccc(F)cc1F | SC5314 |  | 1 µg/mL
CCCC(c1cn(Cc2ccc(Cl)cc2)c2ccccc12)n1ccnc1 | CA980001 |  | >100 µg/mL
O=C(OC1CCN(CC(O)(Cn2cncn2)c2ccc(F)cc2F)CC1)C(F)(F)F | Y0109 | broth dilution | 2.304 µM
CC(c1ccc(Cl)s1)C(O)(Cn1ccnc1)c1ccc(Cl)cc1Cl |  |  | 8 µg/mL
C[C@@H](N1CCN(Cc2cn(Cc3ccc(F)cc3F)c3cc(Cl)ccc23)CC1)[C@](O)(Cn1cncn1)c1ccc(F)cc1F | ATCC 36082 | resazurin | 0.125 µg/mL
Oc1ccc2c(c1)CCc1ccc(O)c(c1)Oc1ccc(cc1)CCc1cccc(O)c1O2 | CA10 | broth dilution | 16 µg/mL
O=C(/C=C/c1cccc(Cl)c1)OC1CCN(CC(O)(Cn2cncn2)c2ccc(F)cc2F)CC1 | Y0109 | broth dilution | 0.124 µM
C[C@@H](N1CCN(Cc2cn(Cc3ccc(Cl)cc3Cl)c3ccccc23)CC1)[C@](O)(Cn1cncn1)c1ccc(F)cc1F | ATCC 90028 | resazurin | 0.125 µg/mL
CCCCN(Cc1cn(Cc2cccc(C#N)c2)nn1)CC(O)(Cn1cncn1)c1ccc(F)cc1F | SC5314 |  | 4 µg/mL
CCCC(C)(C)C(=O)OC1CCN(CC(O)(Cn2cncn2)c2ccc(F)cc2F)CC1 | Y0109 | broth dilution | 0.036 µM
CCCCN(Cc1cn(Cc2ccccc2Br)nn1)CC(O)(Cn1cncn1)c1ccc(F)cc1F | SC5314 |  | 4 µg/mL
CN=[N+]([O-])CC[C@H](N)C(=O)O | 652 (5-flucytosine-resistant) |  | 5.8 µg/mL
C[C@@H](n1ncc2ccccc21)[C@](O)(Cn1cncn1)c1ccc(F)cc1F | ATCC 36082 |  | ≤0.015 µg/mL
COc1cc(/C=C/c2ccc(O)cc2)cc(OC)c1 | Y0109 | broth dilution | 32 µg/mL
O=C(O/N=C(\CCn1ccnc1)c1ccccc1)c1cccc(Cl)c1 |  | agar diffusion | 0.0221 µg/mL
C[C@@H](c1ncncc1F)[C@](O)(Cn1cncn1)c1ccc(F)cc1F |  |  | 0.04 µM
C[C@@H](N1CCN(Cc2cn(Cc3ccc(Cl)cc3)c3ccccc23)CC1)[C@](O)(Cn1cncn1)c1ccc(F)cc1F | ATCC 90028 | resazurin | 0.125 µg/mL
O=c1c2ccccc2oc2ccc(O)cc12 | ATCC 663.90 |  | 250 µg/mL
CN(CCCCCOc1ccccc1)CC(O)(Cn1cncn1)c1ccc(F)cc1F |  |  | 0.04 µM
CCCC(c1cn(Cc2ccc(Cl)cc2)c2ccc(Br)cc12)n1ccnc1 | CA980001 |  | >100 µg/mL
C[C@@H](N1CCN(Cc2cn(Cc3cccc(C(F)(F)F)c3)c3ccccc23)CC1)[C@](O)(Cn1cncn1)c1ccc(F)cc1F | ATCC MYA-1003 | resazurin | 16 µg/mL
CN(CC(=O)Nc1ccc(F)c(Cl)c1)CC(O)(Cn1cncn1)c1ccc(F)cc1F |  |  | 1 µg/mL
C[C@@H](n1cc2c([N+](=O)[O-])cccc2n1)[C@](O)(Cn1cncn1)c1ccc(F)cc1F | ATCC 36082 |  | ≤0.015 µg/mL
C[C@@H](N1CCN(Cc2cn(Cc3ccc(F)cc3F)c3c(C#N)cccc23)CC1)[C@](O)(Cn1cncn1)c1ccc(F)cc1F | ATCC 90028 | resazurin | 1 µg/mL
CC(C)CCCCCCNC1NCCC2c3ccccc3CCN12 | NFI2103 |  | 4 µg/mL
COc1ccc(/C(CCn2ccnc2)=N\O)cc1 |  | agar diffusion | 0.5099 µg/mL
O=C1S/C(=C\c2ccccc2)C(=O)N1CC(O)(Cn1nccn1)c1ccc(F)cc1F | CaCYP51 |  | 0.14 µg/mL
Cc1ccc(-c2c3c(N)c4c(nc3nc3c2c(C)nn3-c2ccccc2)CCCC4)cc1 | CCC 129 | broth dilution / absorbance | 31.2 µg/mL
COc1c2c(c3oc4c(O)cccc4c(=O)c3c1O)C=CC(C)(C)O2 | ATCC 663.90 |  | >250 µg/mL
CCCCCC |  |  | 250 µg/mL
Cc1ccc(-c2c3c(N)c4c(nc3nc3c2c(C)nn3-c2ccccc2)CCC4)cc1 | CCC 130 | broth dilution / absorbance | 62.5 µg/mL
OC(CN1CCN(c2ccc(OCc3ccncc3)cc2)CC1)(Cn1cncn1)c1ccc(F)cc1F | ATCC76615F55 |  | 0.25 µg/mL
CO |  |  | >250 µg/mL
O/N=C(/CCn1ccnc1)c1ccccc1 |  | agar diffusion | 0.5807 µg/mL
O=C1S/C(=C\c2ccc3ccccc3n2)C(=O)N1CC(O)(Cn1nccn1)c1ccc(F)cc1F | CaCYP51 |  | 1.01 µg/mL
C=C(CCCCCNC1NCCC2c3ccccc3CCN12)C(C)C | NFI2103 |  | 16 µg/mL
CO/N=C(/N)c1ccc(-c2ccc(-c3ccc(/C(N)=N\OC)cc3)o2)cc1 | A39 |  | >100 µg/mL
O=C1S/C(=C\c2ccc(Cl)cc2)C(=O)N1CC(O)(Cn1nccn1)c1ccc(F)cc1F | CaCYP51 |  | 4.19 µg/mL
Cc1ccc(NC(=O)CN(C)CC(O)(Cn2cncn2)c2ccc(F)cc2F)cc1 |  |  | 16 µg/mL
CCCCCCCCOc1ccc(NC(=O)C(CCCNC(=O)OC(C)(C)C)NC(=O)[C@]2(O)C[C@@H](O)C(O)[C@H](OC(=O)/C=C/c3ccc(O)c(O)c3)C2)cc1 | ATCC 90028 |  | 4 µg/mL
C[C@H]1[C@H](O)[C@@H](C)/C=C/C=C/C=C/C=C/C=C/C=C/C=C/[C@H](O[C@@H]2O[C@H](C)[C@@H](O)[C@H](N)[C@@H]2O)C[C@@H]2O[C@](O)(C[C@@H](O)C[C@@H](O)CC[C@H](O)[C@@H](O)C[C@@H](O)CC(=O)O[C@H]1C)C[C@H](O)[C@H]2C(=O)O | TIMM3317 (azole-resistant) |  | 0.13 µg/mL
CCCCN(Cc1cn(Cc2ccc(Cl)cc2)nn1)CC(O)(Cn1cncn1)c1ccc(F)cc1F | Y0109 |  | 16 µg/mL
N=C(N)c1ccc(Oc2ccc(-c3cc4ccc(C(=N)N)cc4[nH]3)cc2)cc1 | CAF2-1 |  | 1.25–2.5 µg/mL
CN(C)CCN(C)C(=O)c1ccc(-c2ccc(-c3ccc(C(=O)N(C)CCN(C)C)cc3)o2)cc1 | A39 |  | >100 µg/mL
CC(C)=CCCCCCNC1NCCC2c3ccccc3CCN12 | NFI0124 |  | 16 µg/mL
C=CCc1ccc(Cn2cc(CN3CCN([C@H](C)[C@](O)(Cn4cncn4)c4ccc(F)cc4F)CC3)c3cccc(F)c32)cc1 | ATCC MYA-1003 | resazurin | >128 µg/mL
CCCCN(Cc1cn(Cc2cccc(Br)c2)nn1)CC(O)(Cn1cncn1)c1ccc(F)cc1F | SC5314 |  | 4 µg/mL
c1cc2nc(CCCCc3nc4ccc(C5=NCCN5)cc4[nH]3)[nH]c2cc1C1=NCCN1 | A39 |  | >100 µg/mL
Cc1ccc(/C=C2\SC(=O)N(CC(O)(Cn3nccn3)c3ccc(F)cc3F)C2=O)c(C)c1 | CaCYP51 |  | 0.13 µg/mL
CCCCN(Cc1cn(Cc2c(Cl)cccc2Cl)nn1)CC(O)(Cn1cncn1)c1ccc(F)cc1F | SC5314 |  | 16 µg/mL
O=C1S/C(=C\c2ccc(Cl)cc2Cl)C(=O)N1CC(O)(Cn1nccn1)c1ccc(F)cc1F | CaCYP51 |  | 0.03 µg/mL
Cc1nn([C@H](C)[C@](O)(Cn2cncn2)c2ccc(F)cc2F)c2cccc(F)c12 | ATCC 36082 |  | ≤0.015 µg/mL
Fc1ccc(Cn2cc(Cn3ccnc3)c3ccccc32)cc1 | CA980001 |  | 4 µg/mL
CCCCN(Cc1cn(Cc2ccc(F)cc2)nn1)CC(O)(Cn1cncn1)c1ccc(F)cc1F | Y0109 |  | 0.0625 µg/mL
C[C@@H](N1CCN(Cc2cn(Cc3ccc(C(F)(F)F)cc3)c3cc(Cl)ccc23)CC1)[C@](O)(Cn1cncn1)c1ccc(F)cc1F | ATCC 36082 | resazurin | 0.125 µg/mL
O=C(O/N=C(\CCn1ccnc1)c1ccc(Cl)cc1)c1ccc(Cl)cc1 |  | agar diffusion | 0.0805 µg/mL
CN(CC(=O)Nc1cccc([N+](=O)[O-])c1)CC(O)(Cn1cncn1)c1ccc(F)cc1F |  |  | >64 µg/mL
CCCCN(Cc1cn(Cc2cccc([N+](=O)[O-])c2)nn1)CC(O)(Cn1cncn1)c1ccc(F)cc1F | SC5314 |  | 4 µg/mL
O=C(O/N=C(\CCn1ccnc1)c1ccccc1)c1ccc(F)cc1 |  | agar diffusion | 0.3708 µg/mL
CCOC(=O)c1nc(NC(=O)c2nc(NC(=O)c3cc([N+](=O)[O-])cn3C)cn2C)cn1C | SC5314 (clinical isolate) | broth dilution | >200 µg/mL
Cc1c(Cn2ccnc2)c2ccccc2n1Cc1ccc(F)cc1 | CA980001 |  | >100 µg/mL
O=C(/C=C/c1ccccc1[N+](=O)[O-])OC1CCN(CC(O)(Cn2cncn2)c2ccc(F)cc2F)CC1 | Y0109 | broth dilution | 0.03 µM
CN1CCN(c2n[nH]c(N3C(=O)CS[C@@H]3c3ccc4c(c3)OCO4)n2)CC1 | 116.98 | broth dilution | 1.56 µg/mL
N=C(N)c1ccc(OCCCC(O)COc2ccc(C(=N)N)cc2)cc1 | 103.96 |  | 12.5 µg/mL
Cc1nn([C@H](C)[C@](O)(Cn2cncn2)c2ccc(F)cc2F)c2ccc(F)cc12 | ATCC 36082 |  | 0.031 µg/mL
CCCCCCCCNC1NCCC2c3ccc(OC)cc3CCN12 | NFI2103 |  | 32 µg/mL
Cc1ccc(-c2c3c(N)c4c(nc3nc3c2c(C)nn3-c2ccccc2)CCCCC4)cc1 | CCC 130 | broth dilution / absorbance | 31.2 µg/mL
O=C(NCCCN1CCOCC1)c1ccc(-c2ccc(-c3ccc(C(=O)NCCCN4CCOCC4)cc3)o2)cc1 | A39 |  | >100 µg/mL
C[C@@H](n1cc2ccc([N+](=O)[O-])cc2n1)[C@](O)(Cn1cncn1)c1ccc(F)cc1F | ATCC 36082 |  | 0.063 µg/mL

8 of the rows above, restated:

SMILES | strain | method | result
O=C1S/C(=C\c2ccc3ccccc3n2)C(=O)N1CC(O)(Cn1nccn1)c1ccc(F)cc1F | CaCYP51 |  | 1.01 µg/mL
Fc1ccc(Cn2cc(Cn3ccnc3)c3ccccc32)cc1 | CA980001 |  | 4 µg/mL
C[C@@H](n1cc2c([N+](=O)[O-])cccc2n1)[C@](O)(Cn1cncn1)c1ccc(F)cc1F | ATCC 36082 |  | ≤0.015 µg/mL
C[C@@H](n1ncc2ccccc21)[C@](O)(Cn1cncn1)c1ccc(F)cc1F | ATCC 36082 |  | ≤0.015 µg/mL
CCCCN(Cc1cn(Cc2cccc(C#N)c2)nn1)CC(O)(Cn1cncn1)c1ccc(F)cc1F | SC5314 |  | 4 µg/mL
CCCCN(Cc1cn(Cc2ccccc2C#N)nn1)CC(O)(Cn1cncn1)c1ccc(F)cc1F | SC5314 |  | 1 µg/mL
O=C(NCCCN1CCOCC1)c1ccc(-c2ccc(-c3ccc(C(=O)NCCCN4CCOCC4)cc3)o2)cc1 | A39 |  | >100 µg/mL
N=C(N)c1ccc(OCCCC(O)COc2ccc(C(=N)N)cc2)cc1 | 103.96 |  | 12.5 µg/mL